A mixed list of measured activities; the numbers were collected in NIAID ChemDB.

Shared fields: growth or infection tests; agent: Hepatitis B virus; endpoint: EC50

Blank or dashed fields: not listed here.

compound	cell line	conditions	read by	strain	value
Nc1ncnc2c1ncn2CC(O)P(=O)(O)O	HB611	-	-	-	>400 µM
O=Cc1cc(O)c(O)c(O)c1	HepG2.2.15	-	ELISA / antigen	-	<55.72 µM
C=C(CCC=C(C)C)[C@H]1CC[C@]2(C)[C@@H]1[C@H](O)C[C@@H]1[C@@]3(C)CC[C@H](O)C(C)(C)[C@@H]3[C@@H](OC3OC(CO)C(O)C(O)C3OC3OC(C)C(O)C(O)C3O)C[C@]12C	HepG2.2.15	2 d	PCR	-	5.1 µM
Cc1cn([C@@H]2C[C@@H](O)[C@H](CO)O2)c(=O)[nH]c1=O	HepG2.2.15	-	-	-	0.19 µM
COC(C)c1ccc(O)c(O)c1	HepG2.2.15	-	ELISA / antigen	-	446 µM
Nc1ccn([C@@H]2CS[C@H](CO)O2)c(=O)n1	Huh7	-	-	Mutations L528M M552V	>80 µM
Cc1c(N)nc(N)nc1OCCOCP(=O)(O)O	HEPAD79	-	PCR	-	2 µM
O=C(O)c1ccc(O)c(O)c1	HepG2.2.15	-	PCR	-	32.6 µM
Nc1ncnc2c1ncn2CCOCP(=O)(O)O	HepG2	-	-	Mutations L526M M550V	0.16 µM
O=P(O)(O)COC(CO)Cn1cnc2c(=S)nc[nH]c21	HB611	-	-	-	>400 µM
Cc1cn([C@@H]2C[C@@H](F)[C@H](CO)O2)c(=O)[nH]c1=O	HepG2.2.15	-	-	-	>10 µM
C[C@H](COc1cc(N)nc(N)n1)OCP(=O)(O)O	HEPAD79	-	PCR	-	1.1 µM
Nc1ccn([C@@H]2CS[C@H](CO)O2)c(=O)n1	-	-	-	DUAL	>50 µM
Nc1ccn(CCOCP(=O)(O)O)c(=O)n1	HB611	-	-	-	>400 µM
Nc1cc(OCCOCP(=O)(O)O)nc(=O)[nH]1	HepAD38	-	PCR	-	>300 µM
Cc1cn([C@@H]2C[C@H](O)[C@H](CO)O2)c(=O)[nH]c1=O	HepG2.2.15	-	-	-	>10 µM
Cc1[nH]c(=S)nc2c1ncn2CCOCCP(=O)(O)O	HB611	-	-	-	>400 µM
C[C@H](Cn1cnc2c(N)nc(N)nc21)OCP(=O)(O)O	HepAD38	-	PCR	-	0.3 µM
CCOP(=O)(COCCn1cnc2c(=O)[nH]c(N)nc21)OCC	HB611	-	-	-	1.2 µM
Nc1ccn([C@@H]2C[C@@H](F)[C@H](CO)O2)c(=O)n1	HepG2.2.15	-	-	-	0.5 µM
N#Cc1c(N)nc(N)nc1OCCOCP(=O)(O)O	HEPAD79	-	PCR	-	0.5 µM
N=c1ncn(CC(CO)OCP(=O)(O)O)c2nc[nH]c12	HB611	-	-	-	200 µM
Nc1nc(N)c(Br)c(OCCOCP(=O)(O)O)n1	HepAD38	-	PCR	-	8.7 µM
Nc1ncnc2c1ncn2CCOCP(=O)(O)O	-	-	-	L526M	2 µM
O=C(O)c1ccccc1O	HepG2.2.15	-	ELISA / antigen	-	3620 µM
C[C@H](Cn1cnc2c(N)ncnc21)OCP(=O)(O)O	HepAD38	-	PCR	-	0.17 µM

Again, the opening 3 rows:

compound | cell line | conditions | read by | strain | value
Nc1ncnc2c1ncn2CC(O)P(=O)(O)O | HB611 | - | - | - | >400 µM
O=Cc1cc(O)c(O)c(O)c1 | HepG2.2.15 | - | ELISA / antigen | - | <55.72 µM
C=C(CCC=C(C)C)[C@H]1CC[C@]2(C)[C@@H]1[C@H](O)C[C@@H]1[C@@]3(C)CC[C@H](O)C(C)(C)[C@@H]3[C@@H](OC3OC(CO)C(O)C(O)C3OC3OC(C)C(O)C(O)C3O)C[C@]12C | HepG2.2.15 | 2 d | PCR | - | 5.1 µM

Conditions beyond the fields shown may differ between rows. ECn is the concentration giving n% inhibition of infection, replication or growth.